Library screen at single concentrations

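Growth of Mycobacterium tuberculosis over 3 days (7H9 medium with glucose and tyloxapol); the read-out is not stated. Compounds at 500 µM. Higher reads as more growth inhibition (inferred: compounds with an IC50 in retests scored well above the rest). Size under these conditions: about 18,000 compounds, about 1,400 of them at 50% or above in at least one test.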

The filed quantity is “Percent Effect” (%). The record does not define 0% and 100%; most values in the screen are far below 50% and negative numbers occur (in some assays of this library far below -100). Many other results are left out here, so strong results are more common than in the screen.

compound,Percent Effect
O=C1CCc2cc(C(=O)N3CCCC3)ccc2N1,-5.82
COc1cc(C(=O)N2C[C@H](C(C)C)[C@@H](N)C2)ccc1C,43.89
NCc1csc2nccn12,-0.4396
CCN(CC)C(=O)CCC1CCNCC1,-0.8825
COc1ccc(NC(=O)CSCC#N)cc1,22.29
C=C(C)CN1C(=O)Nc2ccccc2S1(=O)=O,66.8
Cc1nccn1CCNC(=O)C(C)(C)C,-8.743
CS(=O)(=O)NCC(CO)Cc1c(F)cccc1Cl (centres undefined),30.93
NCCCc1ccccc1F,-1.087
CC(C)C1CN(C)CCN1Cc1ccc(C#N)o1 (centres undefined),13.03
NCCCc1ccc2c(c1)OCCO2,31.09
N#CCc1ccc(CN)cc1,78.68
Cc1cc(C(=O)NCc2ccc(F)cc2)[nH]n1,61.23
COc1ccc(CN(C)S(C)(=O)=O)cc1C,40.29
NC(=O)Nc1ccc(CNC(=O)c2cccnc2)cc1,16.84
COc1cc(CCN)ccc1Cl,49.59
O=C(c1ccco1)N1CCN(CC2(O)CCNC2)CC1 (centres undefined),2.019
CC(C)C(=O)N1CCCCC1C (centres undefined),7.549
O=C1NC2(CCCCC2)C(=O)Nc2ccccc21,4.492
CN(Cc1cccc(C(N)=O)c1)C(=O)c1occc1Br,53.89
Nc1cc(C2CCN(C(=O)Cc3ccsc3)CC2)no1,54.65
CCSCCOc1ccc(CO)nc1,55.65
Cc1cc(Br)cc2cc(C(=O)NC(C)(CO)CO)oc12,67.75
COC(=O)c1ccc(C(=O)N(C)C2(C#N)CCC2)cc1,3.446
CC(=O)NCCNC(=O)c1ccncc1,10.91
CC(C)(C)c1nc(CN2CC[C@H](CO)[C@H](O)C2)no1,-1.498
Cc1cc(C#N)ccc1CO,24
CCCNC(=O)CNC(=O)Cn1nc(C)c(Cl)c1C,-3.229
COCCS(=O)(=O)NC(C)C1CC1 (centres undefined),6.918
COCCNC(=O)CN1CCCC(C(F)(F)F)C1 (centres undefined),44.63
CCN(CC(N)=O)C(C)c1cccc(OC)c1 (centres undefined),17.76
CN(CCn1cnnc1)CC(=O)NCc1ccc(Cl)s1,-7.728
CCc1ccc(C(=O)NCc2ccccn2)o1,61.69
Cc1ccnc(NC(=O)C2CC(=O)N(C3CC3)C2)c1 (centres undefined),-7.597
CCc1ccc(CN2CC(N3CCOCC3)C2)o1,86.67
C[C@@H](N)C(=O)N(Cc1ccccc1F)C1CCC1,19.59
NCC(=O)N1CCCC(CCc2ccc(F)cc2)C1 (centres undefined),78.91
CCCN(CC(N)=O)S(=O)(=O)c1ccc(C)cc1,13.01
Cn1cccc1C(=O)NCC(C)(O)c1cccs1 (centres undefined),-4.016
O=C1CCC(NS(=O)(=O)Cc2c(Cl)cccc2Cl)CN1 (centres undefined),20.34
COCCCN1CCN(c2ccccc2OC)CC1,55.53
CC(O)CC(C)(C)CN (centres undefined),0.6126
O=C1CC(c2cccc(Cl)c2)CC(=O)N1,-7.465
COCC(C#N)NC(=O)CCNc1ccccc1 (centres undefined),11.2
CN(C)c1noc(C2CCCN2)n1 (centres undefined),-4.582
Cc1ccc(C(=O)N(C)C)cc1Oc1ccncc1,-5.033
Cc1ccc(C(=O)NCCN)cc1F,43.54
Cc1ccc(C2CSCCN2)o1 (centres undefined),-1.898
NCc1cnn(-c2ccc(Br)cc2)c1,76.3
Cn1cc(NC(=O)Nc2ccc(F)cc2)c(C(N)=O)n1,24.9
CN(C)CCNCc1ccc2c(c1)n(C)c(=O)n2C,0.07323
CSCC(=O)NCCc1ccc(S(C)(=O)=O)cc1,-12.25
Cc1ccc(S(=O)(=O)NC2CC[S+]([O-])CC2)cc1F (centres undefined),7.856
Cc1cccc(NCCCNC(=O)c2cccs2)n1,62.89
CCOc1ncccc1CN(C)C(=O)c1ccco1,32.41
NCc1cccc(NC(=O)NC2CC2)c1,6.196
CCc1noc(Cn2cnc3ccccc3c2=O)n1,51.26
CN(C)CCOc1cc(N)ccn1,7.661
NC1CCN(C2CCSCC2)CC1,8.135
CN(C)C(CN)C1CC1 (centres undefined),5.846
NS(=O)(=O)CCNC(=O)c1ccc(-c2cccs2)s1,-1.578
CCn1ncnc1CN1CCCC1c1ccccn1 (centres undefined),33.73
CN(C)c1ncccc1C(=O)Nc1ccc(C#N)cn1,-1.148
CC(=O)c1c[nH]c(C(=O)NCc2ccccc2O)c1,0.6163
COc1ccc(F)c(N2CCNCC2)c1,44.86
COCCCNC(=O)CCc1nc(-c2ccsc2)no1,16.09
NCC(=O)N1CCCC(CCc2ccc(F)cc2F)C1 (centres undefined),92.21
CN1C(=O)C(C)(C)c2cc(NC(=O)C3CC3)ccc21,39.95
CC(C)C(=O)N1CCC(C(=O)NCC2CC2)CC1,16.76
CCN1CCN(CCOc2ccccc2CO)CC1,16.82
CN1CCO[C@@H]2CCNC[C@@H]21,-5.418
CCNC(=O)CN1CCCC(CC)(CO)C1 (centres undefined),-7.605
Cc1c(C(C)N[C@@H]2C=C[C@H](CO)C2)cnn1C (some centres undefined),-2.087
Cc1cc(S(=O)(=O)NCCN)ccc1F,27
COc1ccc(Cc2[nH][nH]c(=O)c2CCN)cc1,60.4
CCN1CC(C(=O)NCCC2=CCCCC2)CC1=O (centres undefined),16
COc1nc(N)n[nH]1,-10.24
CC(=O)c1ccc(C(=O)NC2CCCCNC2=O)s1 (centres undefined),4.03
CC(C)OCC(=O)N1C[C@H](C2CC2)[C@@H](N)C1,-0.6712
NC(=O)CN1CCCC(Nc2ccc(F)c(F)c2)C1 (centres undefined),44.26
CNCC1CCCN(C(=O)c2cc(F)ccc2C)C1 (centres undefined),6.998
CC(C)NC(=O)CSc1nc(C=Cc2cccs2)n[nH]1,85.58
Cc1ccc(S(=O)(=O)NCC(=O)NC2CC2)cc1C,31.37
COCCOCc1cccc(NC(=O)NC(C)C)c1,63.38
O=C(C1CCOC1)N1CCN(c2ccncc2Cl)CC1 (centres undefined),4.587
COc1cc(CNC2CC2)ccc1O,20.26
CC(=O)NCCNC(=O)c1cc2c(F)cccc2s1,10.34
Cn1cc(Cn2nc(-c3ccco3)oc2=O)cn1,63.07
CC1(C)OCCC1CN (centres undefined),-0.277
CC(N)c1ccccc1NS(C)(=O)=O (centres undefined),3.139
[H][C@]12CCC[C@@]([H])(CN(CCC(=O)Nc3cccnc3)C1)C2,33.74

Repeated from the top, 6 entries:

compound	Percent Effect
O=C1CCc2cc(C(=O)N3CCCC3)ccc2N1	-5.82
COc1cc(C(=O)N2C[C@H](C(C)C)[C@@H](N)C2)ccc1C	43.89
NCc1csc2nccn12	-0.4396
CCN(CC)C(=O)CCC1CCNCC1	-0.8825
COc1ccc(NC(=O)CSCC#N)cc1	22.29
C=C(C)CN1C(=O)Nc2ccccc2S1(=O)=O	66.8

Data taken from ChEMBL document CHEMBL3988442, “University of Dundee, Small-Polar-MMV Screening Library” (2021).